Where “and” joins values, the source holds several entries; their conditions need not be identical. Identical values can stand only once.
B1: HIV-1 MA protein from clade A2 (CDKTB48), full-length (natural protein)
chain: MGARASVLSGGKLEAWEKIRLRPGGKKKYRLKHLVWASRELEKFSINPSLLETETGCRRIFGQLQPALETGTEELRSLYNTIAVLYFVHQKIEVKDTKEALDKIEEEQNKCKQKTQQAAADTGSSSSQNYRGSSSQNY
B2: HIV-1 MA protein from clade C (92BR025.8), full-length (natural protein)
chain: MGARASILRGGKLDAWERIKLKPGGKKHYMMKHLVWASRELERFALDPGLLETSEGCKQIMKQLQPALQTGTKELISLHNTVATLYCVHEKIDVRDTKEALDKIKEEQNKSQQKTQQAEAADKGKVSQNY
B3: HIV-1 MA protein from clade A1 (92UG037.1), full-length (natural protein)
chain: MGARASVLSGGKLDAWEKIRLRPGGKKKYRLKHLVWASRELERFALNPSLLETTEGCQQIMEQLQSALRTGTEELRSLYNTVATLYCVHQRIEVKDTKEALDKIEEIQKKSKQKTQQAAADTGSSSKVSQNY
B4: HIV-1 MA protein from clade B (LAI), full-length (natural protein)
chain: MGARASVLSGGELDRWEKIRLRPGGKKKYKLKHIVWASRELERFAVNPGLLETSEGCRQILGQLQPSLQTGSEELRSLYNTVATLYCVHQRIEIKDTKEALDKIEEEQNKSKKKAQQAAADTGHSSQVSQNY

Each binder was assayed against T1, human Calmodulin-1 (human, UniProt P0DP23 1-149) (assay: SPR).
For B1, the Kd was 52.3 µM and 49.3 µM.
B2 was tested, and the Kd was 87.9 µM.
For B3, the Kd was 55.5 µM and 56.3 µM.

Biological target: T1, human Calmodulin-1
Experiment: SPR
Remark: another data set of the same source
In the case of B1, the koff is reported as 0.566 s⁻¹.
In the case of B2, the koff is reported as 0.474 s⁻¹.
B4 was tested, and the koff was 0.309 s⁻¹.
B3 was tested, and the koff was 0.397 s⁻¹.

Source: article PMC8464830 (2021)
